Experimental data published in PubChem BioAssay AID588742 (Southern Research Specialized Biocontainment Screening …, 2011).
The list shows a part of the results, in another mix than the full data. Measured potencies and affinities stand elsewhere. Active and inactive are the calls of the source. How the calls were made is not given here.

Experiment: viability of Vero cells under compound – cytotoxicity control for flavivirus capping enzyme inhibitors (AID 588742)
Settings: cytotoxicity counter-screen; at 40 µM (top of the series)

| SMILES | viability |
| --- | --- |
| O=C(O)c1cccc(Nc2c([N+](=O)[O-])cc([N+](=O)[O-])cc2[N+](=O)[O-])c1 | inactive: 110% |
